Data reported in patent EP2769723A1, “Compounds for use in inhibiting HIV capsid assembly” (priority 2013, dated 2014).

System: wild type NL4.3 HIV-1
Assay: Tissue culture infectivity test, TZM titration of supernatants from infected TZM cells
Type: cell-based
Conditions: selectivity index calculated as CC50/IC50
Protocol: Hits selected in the YFP-screen were further evaluated in the tissue culture experiments with cells infected with the wild type NL4.3 HIV-1. The virus for infection was obtained from co-culture of MT4 cells. The MT4 cells co-culture was synchronized for one week and then used for the infection of fresh MT 4 cells. 48 hrs post-infection was the culture supernatant harvested, cleared by the filtration through […] filter and stored in -80 °C in 1 ml aliquots. Amount of virus was quantified by enzyme-linked immuno sorbent assay (ELISA) with antibodies against HIV-1 CA (3 ng of CA/ml) and blue cell assay (1x10^5 IU/ml), which gives 3 x 10^4 IU/ng of CA.
For compounds testing the TZM cells were seeded on 96-well plate in the density 5 x 10^3 cells per well. The culture media was aspirated approx. 16 hrs later and cells were infected by the wild type NLA.3 HIV-1 by addition of 50J..il of prepared virus stock diluted with 50 µl of complete DMEM. The compounds were added twice to ensure that there are not any preassembled viruses present at the time of their addition. Compounds were first added 8 hrs post-infection and then 24 hrs later. In both cases the old culture media were replaced by 100 µl of fresh complete DMEM prior to the compounds addition. Different compounds concentrations were tested, but the DMSO concentration never exceeded 1 % DMSO. As controls were used cells treated only with 1 % DMSO and cells treated with 0,1 µM Lopinavir (HIV-1 protease inhibitor). Supernatant was harvested 24 hrs after the second compound addition, i.e. 56 hrs post-infection. Harvested supernatants were immediately titrated on the fresh TZM cells in aim to perform the infectivity assay (TZM titration), or inactivated by addition of Triton X-100 to the final concentration 0.025 % for further ELISA analysis.
TZM titration was performed on the cells seeded day before on 96-well plate in the density 5 x 10^3 cells per well. The analysis was performed for each compound concentration at three different dilutions and in duplicates. The culture media was aspired and cells were lysed 48 hrs post-infection by addition of 100 µl of SteadyGlo luciferase substrate (Promega) diluted 1 : 1 by complete DMEM. The luminescence signal was measured on Luminoskan Ascent (Thermo Labsystems) after the transfer of 80 µl of lysate to the flat bottom white polystyrene assay plates (Costar).

| Compound | SI |
| --- | --- |
| NC(=O)c1c(F)cccc1Nc1nc(-c2ccccn2)nc2ccccc12 [OSR-85] | 19.2 |
| CNc1ccc([N+](=O)[O-])cc1Nc1nc(-c2ccc(C(=O)c3ccccc3)cc2)nc2ccccc12 [OSR-77] | 3.5 |
| Fc1cc(Nc2nc(-c3cccnc3)nc3ccccc23)cc(F)c1F [OSR-199] | 19.6 |
| O=[N+]([O-])c1ccc(F)c(Nc2nc(-c3cccnc3)nc3cc(C(F)(F)F)ccc23)c1 [OSR-178] | 3.3 |
| c1cncc(-c2nc(Nc3ccc4[nH]nnc4c3)c3ccccc3n2)c1 [AMR.325] | 29 |
| FC(F)(F)c1cccc(Nc2nc(-c3cccnc3)nc3cc(C(F)(F)F)ccc23)c1 [OSR-201] | 2.9 |
| CNc1ccc([N+](=O)[O-])cc1Nc1nc(-c2cccnc2)nc2ccccc12 [AMR.494] | 8.9 |
